Taken from: PubChem BioAssay AID624099 (ICCB-Longwood, 2012)

Purpose: 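Knock-downs relieving repression by E2 of an HPV18 LCR luciferase reporter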 (primary screen)
System: human C33A cervical carcinoma cells (HPV-negative) stably expressing BPV1 E2 and an HPV18 LCR luciferase reporter
Reagents: siRNA pool against human genes, 40 nM
Time to read-out: 72 h
Measured: 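HPV18 LCR reporter light per well, converted to plate-wise z-scores that exclude control wells, and averaged over triplicate plates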
Direction: mean z-score and z-score: higher = stronger reporter signal, weaker E2 silencing
Active means: 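Mean z ≥ 2 together with z ≥ 2 in two or more of the three replicates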
The whole screen tested about 21,000 reagents; this is an unselected part. 497 of all reagents (2.4%) count as active. 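Higher z means weaker E2 silencing; only reporter increases were scored, and knock-downs that hurt cell survival may mask genuine repressor factors.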 Entries without a mark were called inactive. The numbers tell different reagents against one gene apart.

| mean z-score | z-score, replicate A | z-score, replicate B | z-score, replicate C | Gene | reagent |
| --- | --- | --- | --- | --- | --- |
| 0.32 | 0.18 | 0.49 | 0.28 | CNOT9 (GeneID 9125) | 1 |
| 0.02 | 0.25 | -0.02 | -0.18 | OR4K17 (GeneID 390436) | 1 |
| -0.65 | -0.48 | -0.64 | -0.82 | LOC387974 (retired record) (GeneID 387974) | 1 |
| -1.03 | -1.16 | -1.1 | -0.83 | NETO1 (GeneID 81832) | 1 |
| -0.86 | -0.97 | -0.59 | -1.01 | SPPL3 (GeneID 121665) | 1 |
| -0.01 | 0.53 | -0.25 | -0.31 | LOC284527 (retired record) (GeneID 284527) | 1 |
| -0.28 | -0.2 | -0.35 | -0.29 | S100B (GeneID 6285) | 1 |
| -1.02 | -0.86 | -0.92 | -1.29 | CERS2 (GeneID 29956) | 1 |
| -0.86 | -1.37 | -0.6 | -0.63 | SZT2 (GeneID 23334) | 1 |
| -0.99 | -1.01 | -1 | -0.96 | SZT2 (GeneID 23334) | 2 |
| -1.88 | -1.79 | -2.23 | -1.63 | SZT2 (GeneID 23334) | 3 |
| -0.22 | 0.14 | -0.15 | -0.66 | TMEM150B (GeneID 284417) | 1 |
| 0.82 | 0.95 | 0.69 | 0.82 | RCN1 (GeneID 5954) | 1 |
| -1.3 | -0.77 | -1.24 | -1.89 | LOC400813 (retired record) (GeneID 400813) | 1 |
| -0.11 | 0.15 | -0.17 | -0.32 | ACKR2 (GeneID 1238) | 1 |
| 0.09 | 0.08 | -0.04 | 0.24 | PRXL2A (GeneID 84293) | 1 |
| -0.51 | -0.6 | -0.37 | -0.57 | SERBP1P1 (GeneID 389866) | 1 |
| 1.59 | 1.37 | 1.72 | 1.67 | RECQL5 (GeneID 9400) | 1 |
| 0.96 | 1.1 | 0.61 | 1.17 | MYORG (GeneID 57462) | 1 |
| 0.05 | -0.12 | 0.08 | 0.2 | PDGFRA (GeneID 5156) | 1 |
| -1.29 | -1.48 | -1.19 | -1.21 | CD300A (GeneID 11314) | 1 |
| -0.43 | -0.67 | -0.37 | -0.26 | ENKUR (GeneID 219670) | 1 |
| -1.25 | -1.26 | -1.1 | -1.38 | IL4 (GeneID 3565) | 1 |
| -0.45 | -0.39 | -0.42 | -0.53 | HCN3 (GeneID 57657) | 1 |
| 0.82 | 1.19 | 0.78 | 0.49 | CHMP6 (GeneID 79643) | 1 |
| -0.01 | 0.2 | -0.1 | -0.14 | ZYG11A (GeneID 440590) | 1 |
| -1.17 | -1.53 | -1.73 | -0.23 | HAUS3 (GeneID 79441) | 1 |
| -0.2 | 0.03 | 0.05 | -0.7 | ANGPTL2 (GeneID 23452) | 1 |
| -0.12 | -0.14 | -0.12 | -0.1 | CBR3 (GeneID 874) | 1 |
| -1.28 | -1.7 | -0.48 | -1.64 | LOC389650 (retired record) (GeneID 389650) | 1 |
| -0.21 | -0.18 | -0.2 | -0.23 | KYNUP1 (GeneID 729321) | 1 |
| 1.58 | 1.84 | 1.46 | 1.45 | LOC389286 (retired record) (GeneID 389286) | 1 |
| 0.47 | 0.76 | 0.44 | 0.2 | UBN2 (GeneID 254048) | 1 |
| 0.8 | 0.93 | 0.34 | 1.12 | TTC21A (GeneID 199223) | 1 |
| 0.15 | -0.1 | 0.55 | -0.01 | RAVER2 (GeneID 55225) | 1 |
| 0.31 | 0.19 | 0.4 | 0.34 | CCN4 (GeneID 8840) | 1 |
| 0.04 | 0.05 | -0.2 | 0.27 | FOXN2 (GeneID 3344) | 1 |
| -0.43 | -0.41 | -0.48 | -0.39 | BCL2A1 (GeneID 597) | 1 |
| -0.11 | -0.99 | 0.05 | 0.63 | MOB3C (GeneID 148932) | 1 |
| -0.17 | -0.2 | -0.25 | -0.08 | CTSA (GeneID 5476) | 1 |
| 0.41 | 0.82 | -0.04 | 0.45 | LETM2 (GeneID 137994) | 1 |
| 0.25 | 0.1 | 0.28 | 0.35 | LINC00917 (GeneID 732275) | 1 |
| 0.35 | 0.48 | 0.42 | 0.15 | SFI1 (GeneID 9814) | 1 |
| -0.74 | -0.63 | -1.32 | -0.25 | DDX51 (GeneID 317781) | 1 |
| -0.33 | -0.54 | -0.16 | -0.29 | ALKBH7 (GeneID 84266) | 1 |
| 0.7 | 0.9 | 0.93 | 0.28 | CALHM2 (GeneID 51063) | 1 |
| -0.65 | -0.49 | -0.67 | -0.77 | RFC5 (GeneID 5985) | 1 |
| -1.74 | -1.56 | -1.65 | -2.01 | OSBPL8 (GeneID 114882) | 1 |
| 1.74 | 2 | 1.52 | 1.71 | WDR89 (GeneID 112840) | 1 |
| 1.63 | 1.47 | 1.73 | 1.67 | UFSP2 (GeneID 55325) | 1 |
| -0.96 | -1.04 | -1.02 | -0.82 | HFE (GeneID 3077) | 1 |
| 0.39 | 0.3 | 0.41 | 0.45 | TARBP1 (GeneID 6894) | 1 |
| -1.41 | -0.98 | -1.58 | -1.67 | SPATA12 (GeneID 353324) | 1 |
| 1.15 | 1.59 | 0.76 | 1.11 | LPO (GeneID 4025) | 1 |
| 0.5 | 0.35 | 0.65 | 0.49 | ACAA1 (GeneID 30) | 1 |
| 0.07 | 0.01 | 0.02 | 0.18 | APBB1IP (GeneID 54518) | 1 |
| -0.45 | -0.34 | -0.61 | -0.42 | TACC1 (GeneID 6867) | 1 |
| 1.16 | 1.18 | 1.08 | 1.21 | GPRC5C (GeneID 55890) | 1 |
| -0.35 | -0.18 | -0.33 | -0.54 | RAB11FIP5 (GeneID 26056) | 1 |
| 0.27 | 0.3 | 0.49 | 0.01 | TIMM13 (GeneID 26517) | 1 |
| 1.84 | 2.3 | 2.22 | 0.99 | ZNF750 (GeneID 79755) | 1 |
| 1.56 | 1.02 | 1.19 | 2.47 | PCIF1 (GeneID 63935) | 1 |
| -1.19 | -1.16 | -1.12 | -1.3 | METTL6 (GeneID 131965) | 1 |
| 0.95 | 1.25 | 0.7 | 0.89 | DLL4 (GeneID 54567) | 1 |
| -0.09 | -0.12 | -0.08 | -0.07 | OR5B21 (GeneID 219968) | 1 |
| 0.39 | -0.35 | 0.33 | 1.2 | ZNF667 (GeneID 63934) | 1 |
| -0.51 | -0.64 | -0.71 | -0.18 | THSD7B (GeneID 80731) | 1 |
| -0.07 | -0.13 | 0 | -0.09 | APTX (GeneID 54840) | 1 |
| 0.99 | 0.68 | 1.4 | 0.87 | ANKUB1 (GeneID 389161) | 1 |
| -1.81 | -1.29 | -1.99 | -2.16 | ANKUB1 (GeneID 389161) | 2 |
| 0.87 | 1.08 | 0.7 | 0.84 | LOC400948 (retired record) (GeneID 400948) | 1 |
| 0.92 | 1.12 | 0.58 | 1.06 | MTIF2 (GeneID 4528) | 1 |
| 4.01 (active) | 4.23 | 3.77 | 4.03 | LBX1 (GeneID 10660) | 1 |
